A mixed list of measured activities; the numbers were collected in NIAID ChemDB.

Common to all: host cell toxicity; cells: U-937; measure: CC50

Blank or dashed fields: not listed here. Conditions beyond the fields shown may differ between rows. CCn is the concentration with n% toxicity to the cells. Two numbers with a dash give a range or band.

| SMILES | method | value |
|---|---|---|
| CC(O)Cn1cnc2cnc(N)nc21 | - | >100 µM |
| O=C(OC(Cn1ccnc1)c1ccc(Cl)cc1)c1ccc(-c2ccccc2)cc1 | MTT | 88.3 µg/mL |
| CC(C)[C@H](NC(=O)[C@H](NCc1ccccc1)[C@H](O)[C@H](Cc1ccccc1)NC(=O)[C@@H](NC(=O)OCc1ccccc1)C(C)(C)C)C(=O)NCc1ccccc1 | - | 9.1 µM |
| Cn1c2ccccc2c(=O)c2c(O)cccc21 | - | 35 µg/mL |
| Cn1c2ccccc2c(=O)c2c(O)cccc21 | - | 35 µg/mL |
| C=C(C)[C@@H]1CC[C@]2(C(=O)NCCCCCCCC(=O)N[C@@H](CC(C)C)[C@@H](O)CC(=O)O)CC[C@]3(C)[C@H](CC[C@@H]4[C@@]5(C)CC[C@H](O)C(C)(C)[C@@H]5CC[C@]43C)[C@@H]12 | - | >10 µM |
| CC1(C)Oc2ccc3ccc(=O)oc3c2[C@@H](OC(=O)C23CCC(C)(C(=O)O2)C3(C)C)[C@H]1OC(=O)C12CCC(C)(C(=O)O1)C2(C)C | - | 24.6 µM |
| Nc1ncc2ncn(CCO)c2n1 | - | >100 µM |
| Cc1cn([C@H]2C[C@H](N=[N+]=[N-])[C@@H](CO)O2)c(=O)[nH]c1=O | absorbance | 1520 µM |
| Nc1nc(Cl)c2ncn(CCO)c2n1 | - | >100 µM |
| COP(=O)(c1cc(C)cc(CCC#N)c1)c1c(C(N)=O)[nH]c2ccc(Cl)c(F)c12 | MTS | 26.5 µM |
| Cn1cc(C(=O)O)c(=O)c2cc(F)c(N3CC=C(c4ccccc4)CC3)c(C(F)(F)F)c21 | MTT | 0.85 µM |
| C=C(CC[C@@H](C)[C@H]1CCC2C3C(CC[C@@]21C)[C@@]1(CO)CC[C@H](O)CC1=C[C@@H]3OC(C)=O)C(C)C | XTT | 10.6 µM |
| CC(CO)n1cnc2c(Cl)nc(N)nc21 | - | 10 µM |
| Nc1nc(=O)n([C@@H]2CC[C@H](CO)O2)cc1F | - | 70 µM |
| CC(CO)n1cnc2c(Cl)ncnc21 | - | >100 µM |
| CCCc1cc(=O)oc2c3c(c4c(c12)OC(C)(C)CC4)O[C@@H](C)[C@H](C)[C@@H]3O | - | 10–20 µM |
| Nc1c(-c2nccc(=O)[nH]2)ncn1[C@@H]1O[C@H](CO)[C@@H](O)[C@H]1O | - | >1500 µM |
| NOCc1c(F)cccc1Cl | - | 44.8 µg/mL |
| CC(C)[C@H](NC(=O)OCc1ccccc1)C(=O)N[C@@H](Cc1ccccc1)[C@@H](O)[C@@H](NCc1ccccc1)C(=O)N[C@H](C(=O)NCc1ccccc1)C(C)C | - | 29.8 µM |
| Nc1nc(NC2CC2)c2ncn([C@H]3CO[C@@H](CO)O3)c2n1 | MTT | >250 µM |

Repeating the first 2 entries:

SMILES | method | value
CC(O)Cn1cnc2cnc(N)nc21 | - | >100 µM
O=C(OC(Cn1ccnc1)c1ccc(Cl)cc1)c1ccc(-c2ccccc2)cc1 | MTT | 88.3 µg/mL